Laboratory results taken from patent publication US5032514A, “Metabolic pathway engineering to increase production of ascorbic acid intermediates” (Genentech, Inc., priority 1988, dated 1991).

System: E. herbicola
Assay: shake flask incubations of whole cells with 2-KLG or 5-KDG
Type: cell-based
Details: whole cells at 11 OD550, 12 g/1 substrate

For O=C(CO)[C@@H](O)[C@H](O)[C@@H](O)C(=O)O [5-KDG, 5-keto-D-gluconate], the metabolites observed was “No metabolites were observed” and the “time by which substrate was eliminated” value was ≤ 17 h.
